Compound potency records, mixed from different reports. Data source: NIAID ChemDB in PubChem.

All rows: tests in culture; organism: Candida krusei

Two numbers with a dash give a range or band.

C[C@H]1[C@H](O)[C@@H](C)/C=C/C=C/C=C/C=C/C=C/C=C/C=C/[C@H](O[C@@H]2O[C@H](C)[C@@H](O)[C@H](N)[C@@H]2O)C[C@@H]2O[C@](O)(C[C@@H](O)C[C@@H](O)CC[C@H](O)[C@@H](O)C[C@@H](O)CC(=O)O[C@H]1C)C[C@H](O)[C@H]2C(=O)O ; measure: MIC90 ; strain: 17 isolates ; result: 2 µg/mL
C[C@@H]1[C@H](O)[C@@H](C)/C=C/C=C/CC/C=C/C=C/C=C/C=C/C(O[C@H]2O[C@H](C)[C@@H](O)[C@H](N)[C@@H]2O)CC2O[C@](O)(CC(O)C(O)CCC(O)CC(O)CC(O)CC(=O)O[C@H]1C)CC(O)C2C(=O)O ; measure: MFC100 ; read by: broth dilution ; strain: LM 120 ; result: 64 µg/mL
CC(C)=CCOc1ccc(C2CC(=O)c3ccc(O)cc3O2)cc1 ; tested at: 100 µg/mL ; measure: zone ; read by: agar diffusion / agar ; result: 0 mm
Cc1ccc(C(C)C)c(O)c1 ; measure: EC50 ; read by: broth dilution / turbidity ; strain: PYCC 3341 ; result: 0.48 µM
O=c1c(O)c(-c2ccccc2)oc2cc(O)cc(O)c12 ; measure: MIC ; read by: broth dilution ; result: 5 µg/mL
Cc1ccc(O)cc1 ; measure: MIC ; read by: broth dilution ; result: 880 µg/mL
C[C@@H](c1ncncc1F)[C@](O)(Cn1cncn1)c1ccc(F)cc1F ; measure: MIC90 ; strain: 17 isolates ; result: 1 µg/mL
C[C@H](Cc1ccc(O)c(O)c1)[C@@H](C)Cc1ccc(O)c(O)c1 ; measure: MIC80 ; read by: broth dilution ; strain: CCC 117-2000 ; result: 500 µg/mL
C[C@@H]1[C@H](O)[C@@H](C)/C=C/C=C/CC/C=C/C=C/C=C/C=C/C(O[C@H]2O[C@H](C)[C@@H](O)[C@H](N)[C@@H]2O)CC2O[C@](O)(CC(O)C(O)CCC(O)CC(O)CC(O)CC(=O)O[C@H]1C)CC(O)C2C(=O)O ; measure: MIC100 ; read by: broth dilution ; strain: ATCC 40147 ; result: >1024 µg/mL
CC(C)=CCOc1ccc(C2CC(=O)c3c(O)cc(O)cc3O2)cc1O ; tested at: 100 µg/mL ; measure: zone ; read by: agar diffusion / agar ; result: 0 mm
C=CCc1ccc(OC)cc1 ; measure: MIC90 ; result: 0.016–0.025 µg/mL
C/C=C/c1ccc(O)c(OC)c1 ; measure: MIC ; read by: broth dilution ; result: 220 µg/mL
CCCCCCCCOc1ccc(-c2ccc(C(=O)NC3CC(NCCN)CNC(=O)[C@@H]4[C@@H](O)[C@@H](C)CN4C(=O)[C@@H](CO)NC(=O)[C@H]([C@H](O)Cc4ccccc4)NC(=O)[C@@H]4C[C@@H](O)CN4C(=O)[C@H]([C@@H](C)O)NC3=O)cc2)cc1 ; measure: MIC ; read by: resazurin ; strain: ATCC 6258 ; result: 5 µg/mL
c1ccc([Se][Se]c2ccccc2)cc1 ; measure: MFC ; read by: broth dilution ; strain: ATCC 6258 ; result: >64 µg/mL
Cc1ccc(C(C)C)cc1O ; measure: MIC ; read by: broth dilution ; result: 200 µg/mL
C[C@H]1[C@H](O)[C@@H](C)/C=C/C=C/C=C/C=C/C=C/C=C/C=C/[C@H](O[C@@H]2O[C@H](C)[C@@H](O)[C@H](N)[C@@H]2O)C[C@@H]2O[C@](O)(C[C@@H](O)C[C@@H](O)CC[C@H](O)[C@@H](O)C[C@@H](O)CC(=O)O[C@H]1C)C[C@H](O)[C@H]2C(=O)O ; measure: MIC ; read by: broth dilution ; strain: CBS 573 ; result: 0.15 µg/mL
O=[N+]([O-])c1ccc(C[Se]c2nnnn2C2CCCCC2)c([N+](=O)[O-])c1 ; setting: 24 h ; measure: EC80 ; read by: broth dilution ; strain: E28 ; result: >500 µM
COc1cc(O)c2c(c1)OC(c1ccc(O)cc1)CC2=O ; setting: clinical isolate ; measure: MIC ; read by: broth dilution ; strain: Clinical isolate ; result: 630 µg/mL
O=[N+]([O-])c1cc(CSc2nnnn2-c2ccc(Cl)c(Cl)c2)cc([N+](=O)[O-])c1 ; setting: 48 h ; measure: EC80 ; read by: broth dilution ; strain: E28 ; result: >125 µM
COc1ccc2cc3[n+](cc2c1OC)CCc1cc2c(cc1-3)OCO2 ; measure: MIC ; read by: broth dilution ; result: 20 µg/mL
O=C(O)c1cccc(-n2nnnc2SCc2cc([N+](=O)[O-])cc([N+](=O)[O-])c2)c1 ; setting: 48 h ; measure: EC80 ; read by: broth dilution ; strain: E28 ; result: >500 µM
C/C=C/Cc1ccc(OC)cc1 ; measure: MIC ; read by: broth dilution ; result: 590 µg/mL
O=[N+]([O-])c1cc(CSc2nnnn2Cc2ccccc2)cc([N+](=O)[O-])c1 ; setting: 24 h ; measure: EC80 ; read by: broth dilution ; strain: E28 ; result: >500 µM
COc1cc2oc(=O)ccc2cc1CC(O)C(C)(C)O ; measure: MIC ; result: 125 µg/mL

Zone: diameter of growth inhibition. ECn: concentration that inhibits the pathogen or its effect by n%. Conditions beyond the fields shown may differ between rows. A number after MIC or MFC names an inhibition level or a share of isolates.